The values below come from patent US5145951A (priority 1990, dated 1992).

Non-standard residues stand in square brackets, D forms with d. *: point of attachment. Boc = CC(C)(C)OC(=O)*; Aib = CC(C)(N)C(=O)O

This data set can be described thus: general procedure: solution-phase peptide synthesis; morpho-CDI/HOBt; DCC/HOBT; BOP; isobutyl chloroformate.

Under “coupling step”, Boc-[Aib]SFV-OMe returned a step yield of 72%.

As for Boc--AiB--Ser--Phe--Val--OH, the step yield (late stage modification step) is 84%.
